Results of unrelated studies side by side (data: NIAID ChemDB).

Shared fields: tests in culture; species: Hepatitis C virus; measure: EC50

An empty or dashed field is not shown. Lines come from different laboratories, so protocols vary. ECn: concentration that inhibits the pathogen or its effect by n%. a–b is a range or a potency band.

smiles,strain,read by,setting,value
C[C@@H](c1ncc(-c2ccc(-c3ncc(-c4cnc([C@H]5CCCN5C(=O)[C@@H](c5ccccc5)N5CCCCC5)[nH]4)cn3)cc2)[nH]1)N(C)C(=O)[C@@H](c1ccccc1)N1CCCCC1,1b,,,0.00001–0.000999 µM
Cc1ccc(Cn2c(C(=O)NS(=O)(=O)C3CC3)c(-c3ccc[nH]c3=O)c3c4occc4ccc32)c(C)c1,,replicon,,<0.5 µM
CCCCCOc1ccc(N(C(=O)C(OC(C)=O)c2ccccc2)c2nc(-c3cccnc3)cs2)cc1C(F)(F)F,,,,<1 µM
CS(=O)(=O)Nc1cc(-c2ccc3nc(NCc4ccc(S(N)(=O)=O)cc4)nc(NCC(F)(F)F)c3n2)ccc1F,,replicon,,<0.1 µM
CCCCCCCOc1ccc(N(C(N)=O)c2nc(-c3ccc(C(=O)N(C)C)nc3)cs2)cc1,,,,>10 µM
CCOc1nc(N)nc2c1ncn2[C@@H]1O[C@@H]2COP(=O)(OC(C)C)O[C@H]2[C@@]1(C)F,2a,replicon,43 d,0.85 µM
Cc1ccccc1Cn1c(C(=O)O)c(-c2ccc[nH]c2=O)c2c3occc3ccc21,,replicon,,<0.5 µM
NS(=O)(=O)c1ccc(CNc2nc(Nc3ccc(-n4cncn4)cc3)c3nc(-c4ccc(F)cc4)ccc3n2)cc1,,replicon,,<0.1 µM
CC1CCC(C(=O)N(c2cc(-c3ccc(NC(=O)c4cscn4)s3)sc2C(=O)O)C(C)C)CC1,1a,replicon,,<0.5 µM
CC(C)(C)C(=O)OCn1cccc(-c2c(C(=O)O)n(Cc3cc4ccccc4nc3Cl)c3cc(F)c4ccoc4c23)c1=O,,replicon,,<0.5 µM
COC(=O)N[C@@H](C(=O)N[C@@H](C)c1ncc(-c2ccc(-c3ncc(-c4cnc([C@H]5CCCN5C(=O)[C@H](NC(=O)OC)c5ccccc5)[nH]4)cn3)cc2)[nH]1)c1ccccc1,1b,,,0.00001–0.000999 µM
CCCCCOc1ccc(N(C(N)=O)c2nc(-c3ccc(F)cc3F)cs2)cc1C(F)(F)F,,,,<1 µM
CC(=O)N[C@H](C(=O)N1CCC[C@H]1c1ncc(-c2ccc(-c3ccc(-c4cnc([C@@H]5CCCN5C(=O)[C@H](NC(C)=O)c5ccccc5)[nH]4)cc3)nc2)[nH]1)c1ccccc1,1b,,,0.00001–0.000999 µM
CN1CC[C@H](C(=O)Nc2ccc(-c3ccc4nc(NCc5ccc(S(N)(=O)=O)cc5)nc(OC5CC5)c4n3)cc2)C1,,replicon,,<0.1 µM
CCCCOc1ccc(N(C(N)=O)c2nc(-c3ccc(O)c(C(N)=O)c3)cs2)cc1C(F)(F)F,,,,<1 µM
CC1CCC(C(=O)N(c2cc(-c3ccc(NC(=O)c4ccnn4C)cc3)sc2C(=O)O)C(C)C)CC1,1a,replicon,,>0.5 µM
COC(=O)N[C@@H](C(=O)N1CCC[C@@H]1c1ncc(-c2ccc(-c3ncc(-c4cnc([C@H]5CCCN5C(=O)[C@@H](c5ccccc5)N5CCCCC5)[nH]4)cn3)cc2)[nH]1)c1ccccc1,1b,,,0.00001–0.000999 µM
CCCCCCCCOc1ccc(N(C(=O)COCCOCCOC)c2nc(-c3cccnc3)c(F)s2)cc1C(F)(F)F,,,,<1 µM
Cc1ncsc1C(=O)Nc1ccc(-c2cc(N(C(=O)C3CCC(C)CC3)C(C)C)c(C(=O)O)s2)cc1,1a,replicon,,<0.5 µM
NS(=O)(=O)c1ccc(CNc2nc(NCC(F)(F)F)c3nc(-c4ccc(Cl)c(S(=O)(=O)NCCN5CCCC5)c4)ccc3n2)cc1,,replicon,,<0.1 µM
COC(=O)N[C@@H](C(=O)N[C@@H](C)c1ncc(-c2cnc(-c3ccc(-c4cnc([C@H]5CCCN5C(=O)[C@H](NC(=O)OC)c5ccccc5)[nH]4)cc3)nc2)[nH]1)c1ccccc1,1b,,,0.00001–0.000999 µM
O=C(NS(=O)(=O)C1CC1)c1c(-c2ccc[nH]c2=O)c2c3occc3c(F)cc2n1Cc1cc2[nH]cnc2cc1Cl,,replicon,,<0.5 µM
CCN(C(=O)C1CCC(C)CC1)c1cc(-c2ccc(NC(=O)c3ccn[nH]3)cc2)sc1C(=O)O,1b,replicon,,<0.5 µM
CCCCCCCCOc1ccc(N(C(=O)CC(=O)OC)c2nc(-c3ccc(F)cc3)cs2)cc1,,,,<1 µM
COC(=O)N[C@H](C(=O)N[C@@H](C)c1ncc(-c2ccc(-c3ccc(-c4cnc([C@@H](C)NC(=O)[C@H](NC(=O)OC)c5ccccc5)[nH]4)cn3)nc2)[nH]1)c1ccccc1,1b,,,0.001–0.099 µM
CC1CCC(C(=O)N(c2cc(-c3ccc(NC(=O)c4ccco4)cc3)sc2C(=O)O)C(C)C)CC1,1b,replicon,,<0.5 µM
NC(=O)COc1ccc2c(c1)S(=O)(=O)N=C(c1c(O)c3cc(F)ccc3n(CCC3CC3)c1=O)N2,1a 33772,replicon,,0.26 µM
CCc1coc2c1ccc1c2c(-c2ccc[nH]c2=O)c(C(=O)O)n1Cc1ccccc1F,,replicon,,>1.5 µM
COC(=O)N[C@@H](C(=O)N1CCC[C@H]1c1ncc(-c2ccc(-c3ccc(-c4cnc([C@@H]5CCCN5C(=O)[C@H]5CCCO5)[nH]4)cn3)cc2)[nH]1)c1ccccc1,1b,,,0.00001–0.000999 µM
CCOc1nc(NCc2ccc(S(N)(=O)=O)cc2)nc2ccc(-c3ccc(NC(=O)C(C)N)cc3)nc12,,replicon,,<0.1 µM
COC(=O)N[C@@H](C(=O)N1CCC[C@@H]1c1ncc(-c2ccc(-c3ccc(-c4nc([C@H]5CCCN5C(=O)[C@H](NC(=O)OC)c5ccccc5)[nH]c4C(F)(F)F)cc3)cc2)[nH]1)c1ccccc1,1b,,,0.00001–0.000999 µM
CCCCCCCCOc1ccc(N(C(N)=O)c2nc(-c3cccnc3)c(F)s2)cc1C(F)(F)F,,,,<1 µM
COC(=O)N[C@@H](C(=O)N(C)[C@@H](C)c1ncc(-c2ccc(-c3ncc(-c4cnc([C@H]5CCCN5C(=O)[C@H](NC(=O)OC)c5ccccc5)[nH]4)cn3)cc2)[nH]1)c1ccccc1,1b,,,0.00001–0.000999 µM
O=C(O)c1c(-c2ccc[nH]c2=O)c2c3occ(Cl)c3c(F)cc2n1Cc1cc2ccccc2nc1Cl,,replicon,,<0.5 µM